The record followed here is article PMC6669600 (Viruses, 2019).

Like-named read-outs stand apart in the source and are kept apart here.

This test deals with HIV-1NL4-3 pseudovirus. Format: cell-based. The note with it: HIV-1NL4-3(D36G) pseudovirus entry, TZM-bl cells, triplicate, repeated three times, mean ± SD, read-out: Inhibition (IC50, nM) NL4-3 entry.

In general, IC50 refers to the concentration that inhibits the measured activity by half. With `CC[C@H](C)[C@H](NC(=O)[C@H](CC(C)C)NC(=O)[C@H](CCC(=O)O)NC(=O)[C@H](CCC(=O)O)NC(=O)[C@@H](NC(=O)[C@H](CCCCN)NC(=O)[C@H](CCCCN)NC(=O)[C@@H](NC(=O)[C@H](Cc1ccc(O)cc1)NC(=O)[C@H](CCC(=O)O)NC(=O)[C@H](CCC(=O)O)NC(=O)[C@@H](NC(=O)[C@H](CCCCN)NC(=O)[C@H](CCCCN)NC(=O)[C@H](CC(=O)O)NC(=O)[C@H](Cc1c[nH]c2ccccc12)NC(=O)[C@H](CCC(=O)O)NC(=O)[C@H](CCC(=O)O)NC(=O)[C@H](Cc1c[nH]c2ccccc12)NC(C)=O)[C@@H](C)CC)[C@@H](C)O)[C@@H](C)CC)C(=O)N[C@@H](CCCCN)C(=O)N[C@@H](CCCCN)C(=O)N[C@@H](CO)C(=O)N[C@@H](CCC(=O)O)C(=O)N[C@@H](CCC(=O)O)C(=O)N[C@@H](CCC(N)=O)C(N)=O` [SC25EK], the IC50 (SD) is 79.8 ± 9.3 nM.

Turning to `CC[C@H](C)[C@H](NC(=O)[C@H](CC(C)C)NC(=O)[C@H](CCC(=O)O)NC(=O)[C@H](CCC(=O)O)NC(=O)[C@@H](NC(=O)[C@H](CCCCN)NC(=O)[C@H](CCCCN)NC(=O)[C@@H](NC(=O)[C@H](Cc1ccc(O)cc1)NC(=O)[C@H](CCC(=O)O)NC(=O)[C@H](CCC(=O)O)NC(=O)[C@@H](NC(=O)[C@H](CCCCN)NC(=O)[C@H](CCCNC(=N)N)NC(=O)[C@H](CC(=O)O)NC(=O)[C@H](Cc1c[nH]c2ccccc12)NC(=O)[C@H](CCC(=O)O)NC(=O)[C@H](CCC(=O)O)NC(=O)[C@H](Cc1c[nH]c2ccccc12)NC(=O)[C@@H](NC(=O)[C@H](CCSC)NC(C)=O)[C@@H](C)O)[C@@H](C)CC)[C@@H](C)O)[C@@H](C)CC)C(=O)N[C@@H](CCCCN)C(=O)N[C@@H](CCCCN)C(=O)N[C@@H](CO)C(=O)N[C@@H](CCC(N)=O)C(=O)N[C@@H](CC(N)=O)C(=O)N[C@@H](CCC(N)=O)C(=O)N[C@@H](CCC(N)=O)C(=O)N[C@@H](CCC(=O)O)C(=O)N[C@@H](CCCCN)C(=O)N[C@@H](CC(N)=O)C(N)=O` [MT-WQ-EKN], under “SD”, the IC50 was found to be 1.1 ± 0.1 nM.

On to `CC[C@H](C)[C@H](NC(=O)[C@H](CC(C)C)NC(=O)[C@H](CCC(=O)O)NC(=O)[C@H](CCC(=O)O)NC(=O)[C@@H](NC(=O)[C@H](CCCCN)NC(=O)[C@H](CCCCN)NC(=O)[C@@H](NC(=O)[C@H](Cc1ccc(O)cc1)NC(=O)[C@H](CCC(=O)O)NC(=O)[C@H](CCC(=O)O)NC(=O)[C@@H](NC(=O)[C@H](CCCCN)NC(=O)[C@H](CCCCN)NC(=O)[C@H](CC(=O)O)NC(=O)[C@H](Cc1c[nH]c2ccccc12)NC(=O)[C@H](CCC(=O)O)NC(=O)[C@H](CCC(=O)O)NC(=O)[C@H](Cc1c[nH]c2ccccc12)NC(=O)[C@@H](NC(=O)[C@H](CCSC)NC(C)=O)[C@@H](C)O)[C@@H](C)CC)[C@@H](C)O)[C@@H](C)CC)C(=O)N[C@@H](CCCCN)C(=O)N[C@@H](CCCCN)C(=O)N[C@@H](CO)C(=O)N[C@@H](CCC(=O)O)C(=O)N[C@@H](CCC(=O)O)C(=O)N[C@@H](CCC(N)=O)C(=O)N[C@@H](CCC(N)=O)C(=O)N[C@@H](CCCCN)C(=O)N[C@@H](CCCCN)C(=O)N[C@@H](CC(N)=O)C(=O)N[C@@H](CCC(=O)O)C(=O)N[C@@H](CCCCN)C(=O)N[C@@H](CCC(=O)O)C(=O)N[C@@H](CC(C)C)C(N)=O` [MT-SC33EK], for which the IC50 (SD) was 1.2 ± 0.1 nM.

As to `CC[C@H](C)[C@H](NC(=O)[C@H](CCCCN)NC(=O)[C@H](CCCCN)NC(=O)[C@H](CC(=O)O)NC(=O)[C@H](Cc1c[nH]c2ccccc12)NC(=O)[C@H](CCC(=O)O)NC(=O)[C@H](CCC(=O)O)NC(=O)[C@H](Cc1c[nH]c2ccccc12)NC(=O)[C@@H](NC(=O)[C@H](CCSC)NC(C)=O)[C@@H](C)O)C(=O)N[C@@H](CCC(=O)O)C(=O)N[C@@H](CCC(=O)O)C(=O)N[C@@H](Cc1ccc(O)cc1)C(=O)N[C@H](C(=O)N[C@@H](CCCCN)C(=O)N[C@@H](CCCCN)C(=O)N[C@H](C(=O)N[C@@H](CCC(=O)O)C(=O)N[C@@H](CCC(=O)O)C(=O)N[C@@H](CC(C)C)C(N)=O)[C@@H](C)CC)[C@@H](C)O` [MT-SC18EK], the IC50 is over 2000 nM.

Consider `CC[C@H](C)[C@H](NC(=O)[C@H](CC(C)C)NC(=O)[C@H](CCC(=O)O)NC(=O)[C@H](CCC(=O)O)NC(=O)[C@@H](NC(=O)[C@H](CCCCN)NC(=O)[C@H](CCCCN)NC(=O)[C@@H](NC(=O)[C@H](Cc1ccc(O)cc1)NC(=O)[C@H](CCC(=O)O)NC(=O)[C@H](CCC(=O)O)NC(=O)[C@@H](NC(=O)[C@H](CCCCN)NC(=O)[C@H](CCCCN)NC(=O)[C@H](CC(=O)O)NC(=O)[C@H](Cc1c[nH]c2ccccc12)NC(=O)[C@H](CCC(=O)O)NC(=O)[C@H](CCC(=O)O)NC(=O)[C@H](Cc1c[nH]c2ccccc12)NC(C)=O)[C@@H](C)CC)[C@@H](C)O)[C@@H](C)CC)C(=O)N[C@@H](CCCCN)C(=O)N[C@@H](CCCCN)C(=O)N[C@@H](CO)C(=O)N[C@@H](CCC(=O)O)C(=O)N[C@@H](CCC(=O)O)C(=O)N[C@@H](CCC(N)=O)C(=O)N[C@@H](CCC(N)=O)C(=O)N[C@@H](CCCCN)C(=O)N[C@@H](CCCCN)C(=O)N[C@@H](CC(N)=O)C(=O)N[C@@H](CCC(=O)O)C(=O)N[C@@H](CCCCN)C(=O)N[C@@H](CCC(=O)O)C(N)=O` [SC32EK], for which, where the note is “SD”, the IC50 was determined as 1.1 ± 0.2 nM.

`CC[C@H](C)[C@H](NC(=O)[C@H](CC(C)C)NC(=O)[C@H](CCC(=O)O)NC(=O)[C@H](CCC(=O)O)NC(=O)[C@@H](NC(=O)[C@H](CCCCN)NC(=O)[C@H](CCCCN)NC(=O)[C@@H](NC(=O)[C@H](Cc1ccc(O)cc1)NC(=O)[C@H](CCC(=O)O)NC(=O)[C@H](CCC(=O)O)NC(=O)[C@@H](NC(=O)[C@H](CCCCN)NC(=O)[C@H](CCCCN)NC(=O)[C@H](CC(=O)O)NC(=O)[C@H](Cc1c[nH]c2ccccc12)NC(=O)[C@H](CCC(=O)O)NC(=O)[C@H](CCC(=O)O)NC(=O)[C@H](Cc1c[nH]c2ccccc12)NC(C)=O)[C@@H](C)CC)[C@@H](C)O)[C@@H](C)CC)C(=O)N[C@@H](CCCCN)C(=O)N[C@@H](CCCCN)C(=O)N[C@@H](CO)C(=O)N[C@@H](CCC(=O)O)C(N)=O` [SC23EK]: the IC50 (SD) was found to be 105 ± 15.3 nM.

Turning to `CC[C@H](C)[C@H](NC(=O)[C@H](CC(C)C)NC(=O)[C@H](CCC(=O)O)NC(=O)[C@H](CCC(=O)O)NC(=O)[C@@H](NC(=O)[C@H](CCCCN)NC(=O)[C@H](CCCCN)NC(=O)[C@@H](NC(=O)[C@H](Cc1ccc(O)cc1)NC(=O)[C@H](CCC(=O)O)NC(=O)[C@H](CCC(=O)O)NC(=O)[C@@H](NC(=O)[C@H](CCCCN)NC(=O)[C@H](CCCCN)NC(=O)[C@H](CC(=O)O)NC(=O)[C@H](Cc1c[nH]c2ccccc12)NC(=O)[C@H](CCC(=O)O)NC(=O)[C@H](CCC(=O)O)NC(=O)[C@H](Cc1c[nH]c2ccccc12)NC(=O)[C@@H](NC(=O)[C@H](CCSC)NC(C)=O)[C@@H](C)O)[C@@H](C)CC)[C@@H](C)O)[C@@H](C)CC)C(=O)N[C@@H](CCCCN)C(=O)N[C@@H](CCCCN)C(=O)N[C@@H](CO)C(=O)N[C@@H](CCC(=O)O)C(=O)N[C@@H](CCC(=O)O)C(=O)N[C@@H](CCC(N)=O)C(=O)N[C@@H](CCC(N)=O)C(N)=O` [MT-SC26EK], the IC50 (SD) is 1.6 ± 0.2 nM.

In the case of `CC[C@H](C)[C@H](NC(=O)[C@H](CC(C)C)NC(=O)[C@H](CCC(=O)O)NC(=O)[C@H](CCC(=O)O)NC(=O)[C@@H](NC(=O)[C@H](CCCCN)NC(=O)[C@H](CCCCN)NC(=O)[C@@H](NC(=O)[C@H](Cc1ccc(O)cc1)NC(=O)[C@H](CCC(=O)O)NC(=O)[C@H](CCC(=O)O)NC(=O)[C@@H](NC(=O)[C@H](CCCCN)NC(=O)[C@H](CCCCN)NC(=O)[C@H](CC(=O)O)NC(=O)[C@H](Cc1c[nH]c2ccccc12)NC(=O)[C@H](CCC(=O)O)NC(=O)[C@H](CCC(=O)O)NC(=O)[C@H](Cc1c[nH]c2ccccc12)NC(C)=O)[C@@H](C)CC)[C@@H](C)O)[C@@H](C)CC)C(=O)N[C@@H](CCCCN)C(=O)N[C@@H](CCCCN)C(=O)N[C@@H](CO)C(=O)N[C@@H](CCC(=O)O)C(=O)N[C@@H](CCC(=O)O)C(=O)N[C@@H](CCC(N)=O)C(=O)N[C@@H](CCC(N)=O)C(=O)N[C@@H](CCCCN)C(N)=O` [SC27EK], under “SD”, the IC50 came to 29 ± 2.1 nM.

For the compound `CC[C@H](C)[C@H](NC(=O)[C@H](CC(C)C)NC(=O)[C@H](CCC(=O)O)NC(=O)[C@H](CCC(=O)O)NC(=O)[C@@H](NC(=O)[C@H](CCCCN)NC(=O)[C@H](CCCCN)NC(=O)[C@@H](NC(=O)[C@H](Cc1ccc(O)cc1)NC(=O)[C@H](CCC(=O)O)NC(=O)[C@H](CCC(=O)O)NC(=O)[C@@H](NC(=O)[C@H](CCCCN)NC(=O)[C@H](CCCCN)NC(=O)[C@H](CC(=O)O)NC(=O)[C@H](Cc1c[nH]c2ccccc12)NC(=O)[C@H](CCC(=O)O)NC(=O)[C@H](CCC(=O)O)NC(=O)[C@H](Cc1c[nH]c2ccccc12)NC(=O)[C@@H](NC(=O)[C@H](CCSC)NC(C)=O)[C@@H](C)O)[C@@H](C)CC)[C@@H](C)O)[C@@H](C)CC)C(=O)N[C@@H](CCCCN)C(=O)N[C@@H](CCCCN)C(N)=O` [MT-SC21EK], the IC50 (SD) came out at 3.8 ± 0.4 nM.

Turning to `CC[C@H](C)[C@H](NC(=O)[C@H](CC(C)C)NC(=O)[C@H](CCC(=O)O)NC(=O)[C@H](CCC(=O)O)NC(=O)[C@@H](NC(=O)[C@H](CCCCN)NC(=O)[C@H](CCCCN)NC(=O)[C@@H](NC(=O)[C@H](Cc1ccc(O)cc1)NC(=O)[C@H](CCC(=O)O)NC(=O)[C@H](CCC(=O)O)NC(=O)[C@@H](NC(=O)[C@H](CCCCN)NC(=O)[C@H](CCCCN)NC(=O)[C@H](CC(=O)O)NC(=O)[C@H](Cc1c[nH]c2ccccc12)NC(=O)[C@H](CCC(=O)O)NC(=O)[C@H](CCC(=O)O)NC(=O)[C@H](Cc1c[nH]c2ccccc12)NC(C)=O)[C@@H](C)CC)[C@@H](C)O)[C@@H](C)CC)C(=O)N[C@@H](CCCCN)C(=O)N[C@@H](CCCCN)C(=O)N[C@@H](CO)C(=O)N[C@@H](CCC(=O)O)C(=O)N[C@@H](CCC(=O)O)C(=O)N[C@@H](CCC(N)=O)C(=O)N[C@@H](CCC(N)=O)C(=O)N[C@@H](CCCCN)C(=O)N[C@@H](CCCCN)C(=O)N[C@@H](CC(N)=O)C(=O)N[C@@H](CCC(=O)O)C(=O)N[C@@H](CCCCN)C(=O)N[C@@H](CCC(=O)O)C(=O)N[C@@H](CC(C)C)C(=O)N[C@@H](CCCCN)C(N)=O` [SC34EK, reference compound], the IC50 (SD) is 0.9 ± 0.1 nM.
